Experimental data: PMC11228623, “Photoswitchable glycoligands targeting Pseudomonas aeruginosa LecA” (Beilstein Journal of Organic Chemistry, 2024)

Amino acid sequences for entries named in this document (tags omitted).
UniProt Q05097, whole entry: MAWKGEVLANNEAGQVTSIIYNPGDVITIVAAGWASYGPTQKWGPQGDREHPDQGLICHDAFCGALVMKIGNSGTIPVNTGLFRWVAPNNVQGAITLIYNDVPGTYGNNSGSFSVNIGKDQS

Target: LecA (Pseudomonas aeruginosa, UniProt Q05097)
Assay: Isothermal titration calorimetry (ITC) of ligand binding to LecA
Conditions: 298 K; for TΔS: derived from ΔG = ΔH − TΔS; for TΔS / −ΔG / n (stoichiometry) / −ΔH: tested form: HCl; for −ΔG: derived from ΔG = −RT ln Kd; for Kd: duplicate, Tris buffer pH 7.5 with 5 or 10% DMSO, Z-isomers measured at PSS370, tested form: HCl; for n (stoichiometry): one site model
From the text: The interaction of compounds 1–5 with LecA was characterized by ITC analysis for both the E- and Z-isomers. As the initial isomer state of the galactosyl azobenzenes is the E-form, ITC measurements made on E-isomers correspond to 100% purity of them. After 370 nm irradiation to induce the photoizomerisation process, a photostationary state is reached between E- and Z-isomers. For ITC measurements made on Z-isomers, the percentage of isomers is shown in the column Z/E (PSS370) of Table 1. Depending on the corresponding galactosyl azobenzenes, the Z-isomer is pure from 87 to 99%. Spectroscopy measurements were performed on ligand solution just before each experiment to check the efficiency of the isomerization, with results as indicated in Table 2.
Isothermal titration calorimetry: LecA was expressed and purified as previously described. All experiments were performed at 25 °C with an ITC200 isothermal titration calorimeter (Microcal-Malvern Panalytical, Grenoble, France). The lyophilized LecA protein was dissolved in a buffer composed of 20 mM Tris^.HCl (pH 7.5), 100 mM NaCl and 100 μM CaCl2 with 5% or 10% DMSO final. All compounds were first dissolved in DMSO then in same buffer for a final concentration of 5% or 10% DMSO. The 200 μL sample cell containing LecA (concentrations ranging from 200 to 300 μM) was subjected to injections of ligand solution: 20 injections of 2 μL (2–3 mM, depending on the ligand) at intervals of 120 s while stirring at 850 rpm. Control experiments were performed by repeating the same protocol, but injecting the ligand into buffer solution. The supplied software Origin 7 or MicroCal PEAQ-ITC was used to fit the experimental data to a theoretical titration curve allowing the determination of affinity (i.e., dissociation constant, Kd), binding enthalpy (ΔH), and stoichiometry (n). Values for free energy change (ΔG) and entropy contributions (TΔS) were derived from the equation ΔG = ΔH − TΔS = − RT ln Kd (with T = 298.15 K and R = 8.314 J mol^−1K^−1).

Row | Compound | TΔS [kJ/mol] | −ΔG [kJ/mol] | Kd [µM] | n (stoichiometry) | −ΔH [kJ/mol]
1 | NCCOc1ccc(/N=N\c2cccc(S[C@@H]3O[C@H](CO)[C@H](O)[C@H](O)[C@H]3O)c2)cc1 | -16.9 | 30.2 | 5.1 | 0.96 ± 0.02 | 47.1 ± 0.2
2 | NCCOc1ccc(/N=N\c2ccc(O[C@@H]3O[C@H](CO)[C@H](O)[C@H](O)[C@H]3O)cc2)cc1 | -13.5 | 27.8 | 13.6 | 1.04 ± 0.04 | 41.3 ± 0.5
3 | NCCOc1cccc(/N=N\c2cccc(O[C@@H]3O[C@H](CO)[C@H](O)[C@H](O)[C@H]3O)c2)c1 | -15.6 | 30.2 | 5.1 | 0.97 ± 0.04 | 45.8 ± 0.6
4 | NCCOc1ccc(/N=N\c2ccccc2S[C@@H]2O[C@H](CO)[C@H](O)[C@H](O)[C@H]2O)cc1 | -10.3 | 30.8 | 4.1 | 0.96 ± 0.03 | 41.1 ± 0.4
5 | NCCOc1ccc(/N=N\c2ccc(S[C@@H]3O[C@H](CO)[C@H](O)[C@H](O)[C@H]3O)cc2)cc1 | -18.7 | 30.7 | 4.1 |  | 49.4 ± 0.4
